Compound potency records, mixed from different reports. Data source: NIAID ChemDB in PubChem.

Shared fields: growth or infection tests; agent: Hepatitis C virus; read-out: EC50

ECn is the concentration giving n% inhibition of infection, replication or growth.

compound	strain	mutations	cell line	read by	result
COc1ccc(C(=O)Nc2cccc(Cn3nc(C(N)=O)c4ccccc43)c2)cc1	J399EM	Luciferase reporter gene	Huh7.5.1	luciferase / replicon	0.182 µM
CC(C)n1c(/C=C/[C@@H](O)C[C@@H](O)CC(=O)O)c(-c2ccc(F)cc2)c2ccccc21			Huh 5-2	luciferase / replicon	1.8 µM
CC[C@H]1C[C@]1(NC(=O)[C@@H]1C[C@@H]2CN1C(=O)[C@H](C(C)(C)C)NC(=O)OCC(C)(C)CCCCc1cccc3c1CN(C3)C(=O)O2)C(=O)NS(=O)(=O)C1CC1	HK6a		Huh7.5	antigen	0.035 µM
CC[C@@H]1C[C@]1(NC(=O)[C@@H]1C[C@@H](Oc2cc(-c3csc(NC(C)C)n3)nc3c(Cl)c(OCCN4CCOCC4)ccc23)CN1C(=O)[C@@H](NC(=O)OC1C[C@@H]2C[C@@H]2C1)C(C)(C)C)C(=O)O	GT1b		1C	luciferase	0.009 µM
CC(C)OC(=O)[C@H](C)N[P@](=O)(OC[C@H]1O[C@@](C#N)(c2ccc3c(N)ncnn23)[C@](C)(O)[C@@H]1OC(=O)C(C)C)Oc1ccccc1	1a H77		Huh7 replicon	luciferase	0.18 µM
Fc1ccccc1-c1nc2ccn(Cc3ccc(-c4ccc(C(F)(F)F)cc4C(F)(F)F)nn3)cc-2n1	4a		Huh7	luciferase	0.992 µM
COc1ccc2c(O[C@@H]3C[C@H]4C(=O)N[C@]5(C(=O)O)C[C@H]5/C=C\CCCCC[C@H](NC(=O)OC5CCCC5)C(=O)N4C3)cc(-c3csc(NC(C)C)n3)nc2c1			Huh 9-13	PCR	>22 µM
CC(=O)Nc1ccc(-c2ccc(Cl)cc2)c(COc2ccc(-c3nc4cc(C(=O)O)ccc4n3C3CCCCC3)cc2)c1	6a		Huh7	luciferase	1.343 µM
Cc1ccc(S(=O)(=O)CNC(=O)CN(C(=O)CCN2C(=O)[C@H](C)C3CC[C@H](C)C4CC[C@]5(C)OO[C@]43C2O5)C(C)(C)C)cc1			Huh 5-2	replicon	6 µM
CN(C)CCN(C)[C@H]1COc2ccccc2-c2c(C3CCCCC3)c3ccc(C(=O)O)cc3n2C1	GT1b		1C	luciferase	0.554 µM
N=C1Sc2ccccc2C2=NCCCN12			n4mBid	luminescence	12 µM
C[C@@]1(O)[C@H](O)[C@@H](CO)O[C@H]1n1ccc(N)nc1=O			Huh 5-2	replicon	0.8 µM
CCC[C@H](NC(=O)[C@@H]1[C@H]2CCC[C@H]2CN1C(=O)[C@@H](NC(=O)[C@@H](NC(=O)c1cnccn1)C1CCCCC1)C(C)(C)C)C(=O)C(=O)NC1CC1	1b D168V			luciferase	0.137 µM
CO[C@H]1[C@@H](O)[C@@H](C)O[C@H](O[C@H]2[C@H](Oc3cccc4c(O)c5c(=O)oc6ccc(C)c7c(=O)oc(c34)c5c67)O[C@H](C)[C@H](O)[C@@H]2O)[C@@H]1O	JFH-1		Huh7-1	PCR	1.4 µM
CC1=CC[C@H](C(=O)N(c2cc(C#CC(C)(C)C)sc2C(=O)O)C2CCC(O)(CO[C@H]3CCOC3)CC2)CC1	GT-1b Con1		Huh7-Lunet	luciferase	0.0028 µM
CNC(=O)c1c(-c2ccc(F)cc2)oc2cc(N(CCO)S(C)(=O)=O)c(C3CC3)cc12			Huh 5-2	luciferase	>33 µM
C[C@@]1(O)[C@H](O)[C@@H](CO)O[C@H]1c1ccc2c(N)ncnn12	GT2b		Huh7.5	PCR	0.41 µM
C[C@@]1(O)[C@H](O)[C@@H](CO)O[C@H]1n1cnc2c(N)ncnc21	GT1b		Huh7-Lunet	luciferase	0.206 µM
NC(=O)c1nn(Cc2cccc(NC(=O)c3ccccc3[N+](=O)[O-])c2)c2ccccc12	J399EM		Huh7.5.1	fluorescence	0.739 µM
CCOC(=O)c1cnc2c(cnn2CC)c1NN=C(C)C			n4mBid	luminescence	8 µM
C[C@@]1(O)[C@H](O)[C@@H](CO)O[C@H]1n1cnc2c(N)ncnc21	5a		Huh7	luciferase	0.1309 µM
CCCCN(CC(=O)NC(C)(C)CC(C)C)C(=O)CCN1C(=O)[C@H](C)C2CC[C@H](C)C3CCC4(C)OO[C@]32C1O4			Huh 5-2	replicon	5 µM
C=C[C@@H]1C[C@]1(NC(=O)[C@@H]1C[C@@H]2CN1C(=O)[C@H](C(C)(C)C)NC(=O)C[C@@H]1C[C@H]1CCCCCc1nc3ccc(OC)cc3nc1O2)C(=O)NS(=O)(=O)C1CC1	GT3a	P89L K583E	1C	luciferase	0.051 µM
NC(=O)c1nn(Cc2ccccc2NC(=O)C2CC2)c2ccccc12	J399EM		Huh7.5.1	fluorescence	>10 µM
NC(=O)c1ncn([C@@H]2O[C@H](CO)[C@@H](O)[C@H]2O)n1			Huh 5-2	luciferase	>33 µM
CCCCn1cnc2c(c(CC#N)nn2-c2ccccc2)c1=N	sg1a (H77)		Huh7-1	PCR	10.1 µM
C[C@H]1CCC2[C@@H](C)C(=O)N(CCC(=O)N(CC(=O)NC(C)(C)CC(C)(C)C)C3CCCC3)C3OC4(C)CCC1[C@@]23OO4			Huh 5-2	replicon	4 µM
Cc1ccc(C(=O)Nc2cccc(Cn3nc(C(N)=O)c4ccccc43)c2)cc1	J399EM		Huh7.5.1	fluorescence	0.115 µM
C=CCN(CC(=O)NCS(=O)(=O)c1ccc(C)cc1)C(=O)CCN1C(=O)[C@H](C)C2CC[C@H](C)C3CC[C@]4(C)OO[C@]32C1O4			Huh 5-2	replicon	4 µM
CC(C)OC(=O)[C@H](C)N[P@](=O)(OCC1O[C@@H](n2ccc(=O)[nH]c2=O)[C@](C)(F)[C@@H]1O)Oc1ccccc1	GT3a	P89L K583E	1C	luciferase	0.013 µM
CCC[C@H](NC(=O)[C@@H]1[C@H]2CCC[C@H]2CN1C(=O)[C@@H](NC(=O)[C@@H](NC(=O)c1cnccn1)C1CCCCC1)C(C)(C)C)C(=O)C(=O)NC1CC1			n4mBid	luminescence	0.2 µM
C[C@@]1(O)[C@H](O)[C@@H](CO)O[C@H]1n1cnc2c(N)ncnc21	genotype 1b	P58L	Huh7.5	luciferase / reporter gene	0.0277 µM
C[C@@]1(O)[C@H](O)[C@@H](CO)O[C@H]1n1cnc2c(N)ncnc21	5a		Huh7 replicon	luciferase	0.18 µM
Fc1ccc(C(c2ccc(F)cc2)N2CCN(C/C=C/c3ccccc3)CC2)cc1			n4mBid	luminescence	2.1 µM
COC(=O)N[C@H](C(=O)N1CCC[C@H]1c1ncc(-c2ccc(-c3ccc(-c4cnc([C@@H]5CCCN5C(=O)[C@@H](NC(=O)OC)C(C)C)[nH]4)cc3)cc2)[nH]1)C(C)C	Con1		1C	luciferase	0.0000029 µM
CC(C)C[C@H]1C(=O)N2CCC[C@H]2[C@]2(O)O[C@](NC(=O)[C@@H]3C=C4c5cccc6[nH]c(Br)c(c56)C[C@H]4N(C)C3)(C(C)C)C(=O)N12			n4mBid	luminescence	2 µM
COc1cc(C)cc2c(-c3c(O)cc(O)c4c3CC(C)NC4C)cc(-c3cc(-c4c(O)cc(O)c5c4CC(C)NC5C)c4cc(C)cc(OC)c4c3O)c(O)c12	JFH-1		Huh7-1	PCR	8 µM
CCC[C@H](NC(=O)[C@@H]1[C@H]2CCC[C@H]2CN1C(=O)[C@@H](NC(=O)[C@@H](NC(=O)c1cnccn1)C1CCCCC1)C(C)(C)C)C(=O)C(=O)NC1CC1	452		Huh7.5	antigen	10.4 µM
C[C@H]1CCC2[C@@H](C)C(=O)N(CCC(=O)N(CC(=O)NCc3ccccc3)C(C)(C)C)C3O[C@]4(C)CCC1[C@@]23OO4			Huh 5-2	replicon	3 µM
CCN(CC)CCN1C(=O)c2cccc3cc(N)cc(c23)C1=O	sg2a (JFH)		Huh7-1	PCR	3.9 µM

Repeating the final 5 entries:

compound	strain	mutations	cell line	read by	result
CC(C)C[C@H]1C(=O)N2CCC[C@H]2[C@]2(O)O[C@](NC(=O)[C@@H]3C=C4c5cccc6[nH]c(Br)c(c56)C[C@H]4N(C)C3)(C(C)C)C(=O)N12			n4mBid	luminescence	2 µM
COc1cc(C)cc2c(-c3c(O)cc(O)c4c3CC(C)NC4C)cc(-c3cc(-c4c(O)cc(O)c5c4CC(C)NC5C)c4cc(C)cc(OC)c4c3O)c(O)c12	JFH-1		Huh7-1	PCR	8 µM
CCC[C@H](NC(=O)[C@@H]1[C@H]2CCC[C@H]2CN1C(=O)[C@@H](NC(=O)[C@@H](NC(=O)c1cnccn1)C1CCCCC1)C(C)(C)C)C(=O)C(=O)NC1CC1	452		Huh7.5	antigen	10.4 µM
C[C@H]1CCC2[C@@H](C)C(=O)N(CCC(=O)N(CC(=O)NCc3ccccc3)C(C)(C)C)C3O[C@]4(C)CCC1[C@@]23OO4			Huh 5-2	replicon	3 µM
CCN(CC)CCN1C(=O)c2cccc3cc(N)cc(c23)C1=O	sg2a (JFH)		Huh7-1	PCR	3.9 µM

Rows are shuffled and stem from different studies. Blank or dashed fields: not listed here.